# Test system: HIV-1 NL4–3 virus
# Settings: TZM-bl cells
row,Structure (SMILES),"SI (selectivity index, ratio of CC50/EC50)"
1,"COc1ccc(N(C)C(=O)[C@H](Cc2ccccc2)NC(=O)CN2C(=O)Nc3ccc(OC)cc3S2(=O)=O)cc1 [Compound 8c, (S)-2-(2-(7-methoxy-1,1-dioxido-3-oxo-3,4-dihydro-2H-benzo[e][1,2,4]thiadiazin-2-yl)acetamido)-N-(4-methoxyphenyl)-N-methyl-3-phenylpropanamide]",>7.41
2,"COc1ccc(N(C)C(=O)[C@H](Cc2ccccc2)NC(=O)CNS(=O)(=O)c2c(C(C)C)cc(C(C)C)cc2C(C)C)cc1 [Compound 6e, (S)-N-(4-methoxyphenyl)-N-methyl-3-phenyl-2-(2-((2,4,6-triisopropylphenyl)sulfonamido)acetamido)propanamide]",>4.17
3,"COc1ccc(N(C)C(=O)[C@H](Cc2ccccc2)NC(=O)CNS(=O)(=O)c2ccccc2F)cc1 [Compound 6j, (S)-2-(2-((2-fluorophenyl)sulfonamido)acetamido)-N-(4-methoxyphenyl)-N-methyl-3-phenylpropanamide]",>3.70
4,"COc1ccc(N(C)C(=O)[C@H](Cc2ccccc2)NC(=O)CNS(=O)(=O)c2c(C)cc(C)cc2C)cc1 [Compound 6i, (S)-N-(4-methoxyphenyl)-N-methyl-3-phenyl-2-(2-((2,4,6-trimethylphenyl)sulfon amido)acetamido)propanamide]",>3.57
5,"COc1ccc(N(C)C(=O)[C@H](Cc2ccccc2)NC(=O)CN2CCN(S(=O)(=O)c3ccc(C)cc3)CC2=O)cc1 [Compound 11h, (S)-N-(4-methoxyphenyl)-N-methyl-2-(2-(2-oxo-4-tosylpiperazin-1-yl)acetamido)-3-phenylpropanamide]",>68.98
6,"COc1ccc(N(C)C(=O)[C@H](Cc2ccccc2)NC(=O)CN2C(=O)N(CC(=O)N[C@@H](Cc3ccccc3)C(=O)N(C)c3ccc(OC)cc3)S(=O)(=O)c3cc(Br)ccc32)cc1 [Compound 8f, (2S,2’S)-2,2’-((2,2’-(7-bromo-1,1-dioxido-3-oxo-2H-benzo[e][1,2,4]thiadiazine-2,4 (3H)-diyl)bis(acetyl))bis(azanediyl))bis(N-(4-methoxyphenyl)-N-methyl-3-phenylpropanamide)]",>3.85
7,"COc1ccc(N(C)C(=O)[C@H](Cc2ccccc2)NC(=O)CNS(=O)(=O)c2cccc([N+](=O)[O-])c2)cc1 [Compound 6n, (S)-N-(4-methoxyphenyl)-N-methyl-2-(2-((3-nitrophenyl)sulfonamido)acetamido) −3-phenylpropanamide]",>4.26
8,"COc1ccc(N(C)C(=O)[C@H](Cc2ccccc2)NC(=O)CN2CCN(S(=O)(=O)c3cccc(F)c3)CC2=O)cc1 [Compound 11c, (S)-2-(2-(4-((3-fluorophenyl)sulfonyl)-2-oxopiperazin-1-yl)acetamido)-N-(4-methoxyphenyl)-N-methyl-3-phenylpropanamide]",>76.96
9,"COc1ccc(N(C)C(=O)[C@H](Cc2ccccc2)NC(=O)CNS(=O)(=O)c2ccccc2[N+](=O)[O-])cc1 [Compound 6m, (S)-N-(4-methoxyphenyl)-N-methyl-2-(2-((2-nitrophenyl)sulfonamido)acetamido) −3-phenylpropanamide]",>4.35
10,"COc1ccc(N(C)C(=O)[C@H](Cc2ccccc2)NC(=O)CN2CCN(S(=O)(=O)c3ccc(Br)cc3)CC2=O)cc1 [Compound 11f, (S)-2-(2-(4-((4-bromophenyl)sulfonyl)-2-oxopiperazin-1-yl)acetamido)-N-(4-methoxyphenyl)-N-methyl-3-phenylpropanamide]",>87.05
11,"COc1ccc(N(C)C(=O)[C@H](Cc2ccccc2)NC(=O)CN2CCN(S(=O)(=O)c3ccccc3N)CC2=O)cc1 [Compound 11n, (S)-2-(2-(4-((2-aminophenyl)sulfonyl)-2-oxopiperazin-1-yl)acetamido)-N-(4-methoxyphenyl)-N-methyl-3-phenylpropanamide]",>64.49
12,"COc1ccc(N(C)C(=O)[C@H](Cc2ccccc2)NC(=O)CN2CCN(S(=O)(=O)c3ccccc3)CC2=O)cc1 [Compound 11a, (S)-N-(4-methoxyphenyl)-N-methyl-2-(2-(2-oxo-4-(phenylsulfonyl)piperazin-1-yl)acetamido)-3-phenylpropanamide]",>95.22
13,"COc1ccc(N(C)C(=O)[C@H](Cc2ccccc2)NC(=O)CNS(=O)(=O)c2ccc(Br)cc2)cc1 [Compound 6d, (S)-2-(2-((4-bromophenyl)sulfonamido)acetamido)-N-(4-methoxyphenyl)-N-methyl-3-phenylpropanamide]",>4.35
14,"COc1ccc(N(C)C(=O)[C@H](Cc2ccccc2)NC(=O)CN2CCN(S(=O)(=O)c3cccc(N)c3)CC2=O)cc1 [Compound 11m, (S)-2-(2-(4-((3-aminophenyl)sulfonyl)-2-oxopiperazin-1-yl)acetamido)-N-(4-methoxyphenyl)-N-methyl-3-phenylpropanamide]",>105.19
15,"COc1ccc(N(C)C(=O)[C@H](Cc2ccccc2)NC(=O)CN2CCN(S(=O)(=O)c3ccccc3[N+](=O)[O-])CC2=O)cc1 [Compound 11k, (S)-N-(4-methoxyphenyl)-N-methyl-2-(2-(4-((2-nitrophenyl)sulfonyl)-2-oxopiperazin-1-yl)acetamido)-3-phenylpropanamide]",>32.81
16,"COc1ccc(N(C)C(=O)[C@H](Cc2ccccc2)NC(=O)CN2CCN(S(=O)(=O)c3ccc(Cl)cc3)CC2=O)cc1 [Compound 11e, (S)-2-(2-(4-((4-chlorophenyl)sulfonyl)-2-oxopiperazin-1-yl)acetamido)-N-(4-methoxyphenyl)-N-methyl-3-phenylpropanamide]",>31.73
17,"COc1ccc(N(C)C(=O)[C@H](Cc2ccccc2)NC(=O)CNS(=O)(=O)c2ccc(C)cc2)cc1 [Compound 6g, (S)-N-(4-methoxyphenyl)-N-methyl-2-(2-((4-methylphenyl)sulfonamido)acetamido)-3-phenylpropanamide]",>6.45
18,"COc1ccc(N(C)C(=O)[C@H](Cc2ccccc2)NC(=O)CN2C(=O)N(CC(=O)N[C@@H](Cc3ccccc3)C(=O)N(C)c3ccc(OC)cc3)S(=O)(=O)c3cc(F)ccc32)cc1 [Compound 8d, (2S,2’S)-2,2’-((2,2’-(7-fluoro-1,1-dioxido-3-oxo-2H-benzo[e][1,2,4]thiadiazine-2,4(3H)-diyl)bis(acetyl))bis(azanediyl))bis(N-(4-methoxyphenyl)-N-methyl-3-phenylpropanamide)]",>6.06
19,"COc1ccc(N(C)C(=O)[C@H](Cc2ccccc2)NC(=O)CN2CCN(S(=O)(=O)c3ccccc3F)CC2=O)cc1 [Compound 11d, (S)-2-(2-(4-((2-fluorophenyl)sulfonyl)-2-oxopiperazin-1-yl)acetamido)-N-(4-methoxyphenyl)-N-methyl-3-phenylpropanamide]",>71.36

# — article PMC8011991 (Journal of medicinal chemistry, 2020)
